The subject of the data set is Trichomonas gallinae trophozoites. Put plainly: Anti-trichomonal (AT) activity in vitro, MTT reduction assay on trophozoites. It is filed as cell-based. The conditions noted are these: SI = CC50 (Vero cells)/IC50 (T. gallinae). As for the experimental part:
The AT activity assay was performed using round bottom microwell plates in quadruplicate. Each well had 150 μl of T. gallinae trophozoites in Trypticase-Yeast Extract-Maltose medium (TYM) with 10% fetal calf serum (Sigma, Madrid, Spain) at 500.000 trophozoites/ml ([29]). EOs and pure compounds were solved in DMSO (Sigma, Madrid, Spain) (<1% final concentration). […] Trophozoite viability was analyzed using the modified MTT colorimetric assay method as previously described in literature ([29]). […] Prior to reading, 100 μl of DMSO was added to each well to dissolve the formazan crystals. The plate was read in a spectrophotometer using a wavelength of 570 nm.
The percentage of AT activity was calculated as growth inhibition using the following formula: […]
Where Ap is the absorbance of the tested product, Ab the absorbance of the blank and Ac the absorbance of the control wells (culture without treatment). […]
IC50 anti-trichomonal activity and CC50 cytotoxic activity were determined from the dose-response experiment, employing a linear regression analysis (% cell viability on log dose).
A general note: Tetrazolium assays rely on reduction of a dye to a coloured formazan, in cell work by metabolically active cells.

“And” between values parts separate entries of the source, which are not always exact repeats. Identical values can stand only once.

Take `CC1(C)C(=O)[C@@]2(C)CCC1C2` [D-fenchone]: the “SI, Selectivity index” value is > 1.62 and > 1.6.

The values are drawn from PMC9500544, “Anti-Trichomonas gallinae activity of essential oils and main compounds from Lamiaceae and Asteraceae plants” (Frontiers in Veterinary Science, 2022).
